Anti-infective test results gathered from many reports (values: NIAID ChemDB through PubChem).

Common to all: whole-cell or culture tests; species: Epstein-Barr virus; cells: P3HR-1; read-out: EC50

An empty or dashed field is not shown.

smiles,read by,value
CO[C@H]1O[C@@H](n2ccc(=O)[nH]c2=O)C[C@@H]1N=[N+]=[N-],-,>30 µM
CCCCCCCCCC(=O)O[C@H]1C[C@H](n2cc(/C=C/Br)c(=O)[nH]c2=O)O[C@@H]1COP1(=O)OCc2cccc(C)c2O1,-,>149 µM
Nc1ccn([C@@H]2CO[C@H](CO)O2)c(=O)n1,-,0.83 µM
Nc1ncc2c(ncn2COC(CO)CO)n1,hybridisation,0.0005 µg/mL
Nc1ncnc2c1ncn2CCOCP(=O)(O)O,PCR,0.42 µg/mL
Cc1cn([C@H]2C[C@H]([N+](=O)[O-])[C@@H](CO)O2)c(=O)[nH]c1=O,hybridisation,>50 µg/mL
CO[C@H]1C[C@H](n2cc(/C=C/Br)c(=O)[nH]c2=O)O[C@@H]1COP1(=O)OCc2cccc(C)c2O1,-,>50 µg/mL
Cc1cccc2c1OP(=O)(OC[C@H]1O[C@@H](n3cc(/C=C/Br)c(=O)[nH]c3=O)C[C@@H]1OC(=O)C(C)(C)C)OC2,-,>83.4 µM
C[C@H](Cn1cnc2c(N)nc(N)nc21)OCP(=O)(O)O,hybridisation,>50 µg/mL
Nc1ccn(C[C@@H](CO)OCP(=O)(O)O)c(=O)n1,PCR,0.065 µg/mL
C[C@H](Cn1cnc2c(N)ncnc21)OCP(=O)(O)O,hybridisation,10 µg/mL
CCCCCC(=O)O[C@H]1C[C@H](n2cc(/C=C/Br)c(=O)[nH]c2=O)O[C@@H]1COP1(=O)OCc2cccc(C)c2O1,-,>100 µg/mL
Nc1ccn([C@H]2CO[C@@H](CO)O2)c(=O)n1,-,1.5 µM
CC(=O)O[C@H]1C[C@H](n2cc(/C=C/Br)c(=O)[nH]c2=O)O[C@@H]1COP1(=O)OCc2cccc(C)c2O1,-,>89.7 µM
O=C(O)c1ccc(NS(=O)(=O)c2ccc(NC3=CC(=O)c4ccccc4C3=O)cc2)cc1,hybridisation,2.2 µg/mL
C=CC(C)(C)C1=Cc2cc3c(cc2OC1=C)OC(C(C)(C)OC(C)=O)C3,PCR,3.78 µM
Cc1cn([C@H]2C[C@H](N=[N+]=[N-])[C@@H](CO)O2)c(=O)[nH]c1=O,hybridisation,10 µg/mL
Nc1ccn([C@@H]2CO[C@H](CO)S2)c(=O)n1,-,8.3 µM

2 of the rows above, restated:

smiles,read by,value
Cc1cn([C@H]2C[C@H](N=[N+]=[N-])[C@@H](CO)O2)c(=O)[nH]c1=O,hybridisation,10 µg/mL
Nc1ncc2c(ncn2COC(CO)CO)n1,hybridisation,0.0005 µg/mL

Lines come from different laboratories, so protocols vary. ECn is the concentration giving n% inhibition of infection, replication or growth.